# PSTVd loop 27 mutant pool in Nicotiana benthamiana

Reference: Wu et al. 2024, doi:10.1371/journal.ppat.1012142.

Region: loop 27 of PSTVd (intermediate strain), 5' to 3', with the closing base pair. Wild type: UUUUCA. Varied positions (N): UNNNNA.

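Three N. benthamiana plants were inoculated with the whole mutant pool. Samples came from the inoculated region at 5 days, the leaf margin at 10 and upper systemic leaves at 12.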

Numbers give reads per thousand; 0 = not seen among the reads, higher = more abundant. Each site shows the three plants. "Pool" is the share in the plasmid pool used as inoculum, on the same scale. The inoculated region was read from the minus strand, the other sites from the plus strand. For reference, wild type rose from 39.4 per thousand in the pool to 155, 124, 130 (inoculated region), 823, 907, 920 (leaf margin) and 805, 787, 933 (systemic leaves). With 30,013-65,426 reads a sample, very low values are single reads. Sequences that differ at fixed positions probably stem from PCR or sequencing errors, and defective variants can be carried along by functional ones.

sequence | pool | inoculated region | leaf margin | systemic leaves
UAAUUA | 6.75 | 1.98 2.86 1.80 | 0.100 0.181 0.388 | 0.0322 0.214 0.138
UAAUUC | 0.136 | 0.0529 0.0491 0.0378 | 0 0 0 | 0 0 0
UACAAA | 2.83 | 2.24 2.06 2.17 | 0.100 0.423 0.129 | 0.0322 0.0153 0.138
UACACA | 0.421 | 0.600 0.916 0.775 | 0 0.0302 0 | 0 0 0
UACAGA | 2.81 | 3.00 2.96 2.85 | 0.200 0.242 0.594 | 0.0643 0.0306 0.275
UACAUA | 1.33 | 0.247 0.393 0.208 | 0 0 0 | 0 0 0
UACCAA | 4.01 | 4.50 4.37 3.72 | 0.866 0.212 0.0517 | 0.0482 0.0611 0.0590
UACCAC | 0.435 | 0.406 0.393 0.359 | 0.100 0.0302 0 | 0.0161 0 0
UACCCA | 1.24 | 0.176 0.376 0.302 | 0 0.0302 0.0258 | 0 0 0
UACCGA | 1.41 | 1.50 1.70 1.64 | 0 0 0.0775 | 0.0161 0.0153 0.0197
UACCUA | 1.82 | 1.13 1.29 1.04 | 0 0.363 0 | 0 0 0.0197
UACGAA | 0.828 | 0.229 0.245 0.0945 | 0 0.454 0 | 0 0.0153 0.0393
UACGCA | 2.72 | 1.06 1.23 1.12 | 0 0.121 0.491 | 0.0161 0 0
UACGGA | 1.81 | 0.882 1.19 0.756 | 0.133 0.0907 0 | 0 0 0.0197
UACGUA | 2.62 | 0.741 0.769 0.832 | 0 0.121 0 | 0 0.0306 0
UACUAA | 2.43 | 1.06 0.949 1.23 | 0.0666 0.0605 0.439 | 0 0.0153 0.472
UACUAC | 0.0272 | 0 0 0 | 0 0 0 | 0 0 0
UACUCA | 1.15 | 2.47 2.19 1.97 | 0.900 0.121 0 | 0 0.0306 0.0393
UACUGA | 5.98 | 6.42 6.68 6.48 | 0.766 0.151 0.155 | 0.0322 0.0153 0.0787
UACUUA | 2.19 | 1.22 1.47 0.832 | 0.0333 0.121 0 | 0 0 0
UAGAAA | 2.61 | 4.59 4.14 5.10 | 1.03 0.363 0.594 | 0.0482 0.306 0.0787
UAGACA | 1.02 | 1.01 1.05 1.02 | 0.0666 0.151 0 | 0.0161 0.0153 0.0393
UAGAGA | 2.77 | 1.64 1.90 1.21 | 0.133 0.363 0.181 | 0.0161 0.0611 0.0393
UAGAUA | 5.00 | 5.26 4.39 5.71 | 0.733 0.605 0.0775 | 0.0643 0.0459 0.138
UAGCAA | 2.66 | 2.95 3.08 2.53 | 0.0666 0.181 0.0775 | 0.0482 0.0611 0.0984
UAGCAC | 0.0136 | 0 0 0 | 0 0 0 | 0 0 0
UAGCCA | 3.14 | 1.18 1.08 0.983 | 0 0.0907 0.207 | 0 0.0306 0.0590
UAGCGA | 2.32 | 1.09 0.933 0.775 | 0.0333 0.121 0.284 | 0.0161 0 0.0984
UAGCUA | 4.18 | 2.13 1.69 1.61 | 0.300 0.0302 0 | 0.0161 0.0917 0.0393
UAGGAA | 6.49 | 4.89 4.65 4.40 | 0.800 0.333 0.0775 | 0.0161 0.0917 0.118
UAGGAC | 0.0136 | 0 0 0.0378 | 0 0 0 | 0 0 0
UAGGCA | 2.05 | 0.864 1.05 0.945 | 0.0333 0.0302 0.336 | 0.0161 0.0306 0.0590
UAGGGA | 6.23 | 1.18 1.70 1.44 | 0.0333 0.272 0.284 | 0.0161 0.138 0.0393
UAGGUA | 7.21 | 6.33 7.18 7.22 | 0.866 0.393 0.129 | 0.0161 0.245 0.0590
UAGUAA | 1.89 | 1.85 2.49 2.87 | 0.666 0.212 0.103 | 0.0322 0.0459 0.138
UAGUCA | 2.00 | 2.95 2.37 2.72 | 0.0666 0.181 0.284 | 0.129 0.0611 0.0787
UAGUGA | 2.70 | 2.56 2.21 2.04 | 0.733 0.272 0.336 | 0.0482 0.0153 0.0393
UAGUUA | 4.90 | 8.11 7.54 7.71 | 2.33 0.151 0.956 | 0.0643 0.138 0.138
UAUAAA | 5.60 | 3.42 4.30 3.84 | 1.43 0.423 0.310 | 0.0965 0.183 0.138
UAUACA | 0.0679 | 0.0882 0.0491 0.0567 | 0.133 0.151 0.0517 | 0.0482 0.0611 0
UAUAGA | 2.13 | 0.723 0.851 0.851 | 0.0666 0.0907 0.0258 | 0.0322 0.107 0.0197
UAUAUA | 3.42 | 0.899 1.11 0.529 | 0.0666 0.242 0 | 0 0.0459 0.0984
UAUCAA | 2.23 | 1.89 2.55 1.85 | 0.0666 0.212 0.0517 | 0 0 0.0197
UAUCCA | 0.978 | 2.38 1.72 2.06 | 0.167 0.0907 0.956 | 0.0322 0.0153 0.0197
UAUCGA | 2.44 | 1.85 2.24 2.29 | 0.133 0.212 0.258 | 0.0322 0.0153 0.0393
UAUCUA | 2.97 | 2.40 2.19 3.16 | 0.0666 0.121 0.0517 | 0.0322 0.199 0.0197
UAUGAA | 5.39 | 3.28 3.80 4.82 | 2.00 0.454 0.543 | 0.0482 0.245 0.138
UAUGCA | 5.80 | 4.71 5.50 4.74 | 0.233 1.06 0.904 | 0.129 0.199 0.0787
UAUGGA | 2.12 | 0.917 0.769 0.435 | 0.100 0.0907 0 | 0.0482 0 0.0787
UAUGUA | 6.42 | 2.87 2.86 2.68 | 0.0666 0.151 0 | 0.0482 0.0611 0.0590
UAUUAA | 3.82 | 4.99 4.84 5.18 | 0.800 0.695 0.310 | 0.0965 0.138 0.177
UAUUCA | 2.74 | 5.96 4.11 6.18 | 2.67 1.39 0.749 | 0.675 1.05 0.708
UAUUCG | 0.0136 | 0 0 0 | 0 0 0 | 0 0 0
UAUUGA | 3.46 | 3.56 3.49 3.48 | 0.633 0.423 0.491 | 0.0643 0.138 0.0590
UAUUUA | 7.74 | 11.4 9.36 10.2 | 0.866 0.756 0.336 | 0.0804 0.153 0.138
UCAAAA | 4.43 | 2.63 2.47 2.10 | 0.366 0.151 0.388 | 0.0161 0 0.0197
UCAAAC | 0.0136 | 0 0 0.0189 | 0 0 0 | 0 0 0
UCAACA | 0.611 | 0.423 0.458 0.378 | 0.0333 0.0302 0 | 0 0 0
UCAAGA | 2.57 | 0.882 0.622 0.473 | 0.167 0.0302 0.207 | 0.0161 0.0306 0.0197
UCAAUA | 6.10 | 4.41 4.75 3.69 | 0.466 0.151 0.103 | 0.0482 0.0611 0.0984
UCACAA | 2.11 | 0.670 0.998 0.813 | 0.100 0.0302 0.129 | 0 0 0.0197
UCACCA | 2.17 | 0.917 1.23 0.945 | 0.366 0.0605 0 | 0 0.0153 0.0197
UCACGA | 2.53 | 0.617 0.556 0.699 | 0.0666 0.0605 0.0258 | 0 0.183 0.0197
UCACUA | 1.02 | 0.635 0.622 1.17 | 0.0333 0.0302 0.284 | 0 0 0
UCAGAA | 1.53 | 0.547 0.540 0.605 | 0.0333 0.333 0.0258 | 0 0.0611 0.0393
UCAGCA | 1.72 | 0.564 0.655 0.567 | 0.0333 0.0907 0.0258 | 0 0.0153 0.0393
UCAGGA | 2.62 | 0.988 1.05 1.02 | 0.633 0.0907 0 | 0.0161 0.0459 0.0393
UCAGUA | 5.94 | 1.45 1.52 1.59 | 0.0333 0.212 0.129 | 0.0322 0.352 0.197
UCAUAA | 2.39 | 0.494 0.753 0.529 | 0.133 0.151 0 | 0 0.0153 0.0787
UCAUCA | 1.09 | 0.494 0.687 0.510 | 0.0666 0.363 0 | 0.0161 0.0153 0.0197
UCAUGA | 4.39 | 0.882 1.06 1.32 | 0 0.544 0.0517 | 0 0.245 0.0197
UCAUUA | 4.43 | 2.33 2.55 2.17 | 0.0666 0.726 0.129 | 0.0482 0 0.0393
UCCAAA | 2.40 | 1.06 0.966 0.926 | 0.300 0.0605 0 | 0.0161 0.0611 0.0590